Experiment: Bacillus subtilis secretion library screening, secreted protein by chip electrophoresis
Conditions: for Secreted protein SEQID-00103: leader peptide fused to SEQID-00103, B. subtilis culture supernatant; for Secreted protein SEQID-00105: leader peptide fused to SEQID-00105, B. subtilis culture supernatant; for Secreted protein SEQID-298: leader peptide fused to SEQID-298, B. subtilis culture supernatant; for Secreted protein SEQID-00338: leader peptide fused to SEQID-00338, B. subtilis culture supernatant; for Secreted protein SEQID-00341: leader peptide fused to SEQID-00341, B. subtilis culture supernatant; for Secreted protein SEQID-00352: leader peptide fused to SEQID-00352, B. subtilis culture supernatant

## 3921 (MKKKKTWKRFLHFSSAALAAGLIFTSAAPAEA; listed as Bacillus subtilis) [compound 3921]
  Secreted protein SEQID-00103: 12.1 mg/1/OD
  Secreted protein SEQID-00105: 135.7 mg/1/OD
  Secreted protein SEQID-298: 4.4 mg/1/OD
  Secreted protein SEQID-00338: 9.5 mg/1/OD
  Secreted protein SEQID-00341: 148.14 mg/1/OD
Leader peptide fused to SEQID-00405, B. subtilis culture supernatant
  Secreted protein, Other SEQ IDs: SEQID-00405: 3.1 mg/1/OD

## 3922 (MKRSISIFITCLLITLLTMGGMIASPASA; listed as Bacillus subtilis) [compound 3922]
  Secreted protein SEQID-00103: 12.1 mg/1/OD
  Secreted protein SEQID-00105: 73.6 mg/1/OD
  Secreted protein SEQID-298: 7.8 mg/1/OD
  Secreted protein SEQID-00341: 33.9 mg/1/OD
  Secreted protein SEQID-00352: 2.7 mg/1/OD

## 3923 (MRKKTKNRLISSVLSTVVISSLLFPGAAGA; listed as Bacillus subtilis) [compound 3923]
  Secreted protein SEQID-00341: 40.4 mg/1/OD

## 3924 (MRKNRILALFVLSLGLLSFMVTPVSA; listed as Bacillus subtilis) [compound 3924]
  Secreted protein SEQID-00338: 5.7 mg/1/OD
  Secreted protein SEQID-00341: 41.9 mg/1/OD
Leader peptide fused to SEQID-00398, B. subtilis culture supernatant
  Secreted protein, Other SEQ IDs: SEQID-00398: 5.5 mg/1/OD

## 3926 (MKSCKQLIVCSLAAILLLIPSVSFA; listed as Bacillus subtilis) [compound 3926]
  Secreted protein SEQID-00338: 3.4 mg/1/OD

## 3927 (MKKKLAAGLTASAIVGTTLVVTPAEA; listed as Bacillus subtilis) [compound 3927]
  Secreted protein SEQID-00103: 14.8 mg/1/OD

## 3928 (MKLVPRFRKQWFAYLTVLCLALAAAVSFGVPAKA; listed as Bacillus subtilis) [compound 3928]
  Secreted protein SEQID-298: 10.8 mg/1/OD

## 3929 (MRNLTKTSLLLAGLCTAAQMVFVTHASA; listed as Bacillus subtilis) [compound 3929]
  Secreted protein SEQID-00341: 37.5 mg/1/OD

## 3930 (MKRLCLWFTVFSLFLVLLPGKALG; listed as Bacillus subtilis) [compound 3930]
  Secreted protein SEQID-00341: 64.4 mg/1/OD

## 3931 (MKLKTKASIKFGICVGLLCLSITGFTPFFNSTHAEA; listed as Bacillus subtilis) [compound 3931]
  Secreted protein SEQID-00352: 2.8 mg/1/OD

## 3932 (MKKFPKKLLPIAVLSSIAFSSLASGSVPEASA; listed as Bacillus subtilis) [compound 3932]
  Secreted protein SEQID-298: 7.9 mg/1/OD

## 3933 (MKKRKRRNFKRFIAAFLVLALMISLVPADVLA; listed as Bacillus subtilis) [compound 3933]
  Secreted protein SEQID-00338: 7 mg/1/OD
  Secreted protein SEQID-00352: 2.14 mg/1/OD

## 3934 (MFKFKKNFLVGLSAALMSISLFSATASA; listed as Bacillus subtilis) [compound 3934]
  Secreted protein SEQID-00103: 13.4 mg/1/OD
  Secreted protein SEQID-00105: 114.4 mg/1/OD
  Secreted protein SEQID-298: 4.3 mg/1/OD
  Secreted protein SEQID-00338: 9.8 mg/1/OD
  Secreted protein SEQID-00341: 83.3 mg/1/OD

## 3935 (MKRMIVRMTLPLLIVCLAFSSFSASARA; listed as Bacillus subtilis) [compound 3935]
  Secreted protein SEQID-00352: 0.69 mg/1/OD

## 3936 (MKRITINIITMFIAAAVISLTGTAEA; listed as Bacillus subtilis) [compound 3936]
  Secreted protein SEQID-00341: 61.7 mg/1/OD

## 3937 (MRKKRVITCVMAASLTLGSLLPAGYASA; listed as Bacillus subtilis) [compound 3937]
  Secreted protein SEQID-00105: 135.6 mg/1/OD

## 3938 (MKKKQVMLALTAAAGLGLTALHSAPAAKA; listed as Bacillus subtilis) [compound 3938]
  Secreted protein SEQID-00103: 20.8 mg/1/OD

## 3939 (MKWMCSICCAAVLLAGGAAQA; listed as Bacillus subtilis) [compound 3939]
  Secreted protein SEQID-00103: 9.4 mg/1/OD

## 3940 (MKKELLASLVLCLSLSPLVSTNEVFA; listed as Bacillus subtilis) [compound 3940]
  Secreted protein SEQID-00105: 83.4 mg/1/OD
  Secreted protein SEQID-00341: 80.2 mg/1/OD

## 3941 (MNFKKTVVSALSISALALSVSGVASA; listed as Bacillus subtilis) [compound 3941]
  Secreted protein SEQID-00103: 14.3 mg/1/OD
  Secreted protein SEQID-00105: 152.7 mg/1/OD

## 3942 (MKRLFMKASLVLFAVVFVFAVKGAPAKA; listed as Bacillus subtilis) [compound 3942]
  Secreted protein SEQID-00103: 20 mg/1/OD

## 3943 (MLKKKWMVGLLAGCLAAGGFSYNAFA; listed as Bacillus subtilis) [compound 3943]
  Secreted protein SEQID-00341: 132.5 mg/1/OD
  Secreted protein SEQID-00352: 2.23 mg/1/OD

## 3944 (MKKIGLLFMLCLAALFTIGFPAQQADA; listed as Bacillus subtilis) [compound 3944]
  Secreted protein SEQID-00103: 13.3 mg/1/OD

## 3945 (MRFTKVVGFLSVLGLAAVFPLTAQA; listed as Bacillus subtilis) [compound 3945]
  Secreted protein SEQID-00105: 124.3 mg/1/OD

## 3946 (MKQGKFSVFLILLLMLTLVVAPKGKAEA; listed as Bacillus subtilis) [compound 3946]
  Secreted protein SEQID-298: 3.9 mg/1/OD

## 3947 (MTLTKLKMLSMLTVMIASLFIFSSQALA; listed as Bacillus subtilis) [compound 3947]
  Secreted protein SEQID-00338: 6.3 mg/1/OD

## 3948 (MKRKLLSSLAISALSLGLLVSAPTASFAAE; listed as Bacillus subtilis) [compound 3948]
Leader peptide fused to SEQID-00404, B. subtilis culture supernatant
  Secreted protein, Other SEQ IDs: SEQID-00404: 2.5 mg/1/OD

## 3949 (MTKKAWFLPLVCVLLISGWLAPAASASA; listed as Bacillus subtilis) [compound 3949]
  Secreted protein SEQID-00352: 2.26 mg/1/OD

## 3950 (MRKSLITLGLASVIGTSSFLIPFTSKTASA; listed as Bacillus subtilis) [compound 3950]
  Secreted protein SEQID-00103: 14.6 mg/1/OD
  Secreted protein SEQID-00105: 124.4 mg/1/OD

## 3951 (MKRIRIPMTLALGAALTIAPLSFASA; listed as Bacillus subtilis) [compound 3951]
  Secreted protein SEQID-00103: 17.7 mg/1/OD

## 3952 (MRKYTVIASILLSFLSVLSGG; listed as Bacillus subtilis) [compound 3952]
  Secreted protein SEQID-00103: 26.2 mg/1/OD

## 3953 (MKKLLTVMTMAVLTAGTLLLPAQSVTPAAHA; listed as Bacillus subtilis) [compound 3953]
Leader peptide fused to SEQID-403, B. subtilis culture supernatant
  Secreted protein, Other SEQ IDs: SEQID-403: 3.4 mg/1/OD

## 3954 (MNKPTKLFSTLALAAGMTAAAAGGAGTIHA; listed as Bacillus subtilis) [compound 3954]
  Secreted protein SEQID-00105: 131 mg/1/OD

## 3955 (MVKSFRMKALIAGAAVAAAVSAGAVSDVPAAKVLQPTAAYA; listed as Bacillus subtilis) [compound 3955]
  Secreted protein SEQID-00352: 3.7 mg/1/OD

## 3956 (MKWNNMLKAAGIAVLLFSVFAYAAPSLKAVQA; listed as Bacillus subtilis) [compound 3956]
  Secreted protein SEQID-00338: 7.9 mg/1/OD
  Secreted protein SEQID-00341: 41.5 mg/1/OD
  Secreted protein SEQID-00352: 0.95 mg/1/OD

Reference: US20260069656A1, “Nutritive Polypeptides and Formulations Thereof, and Methods of Production and Use Thereof” (Axcella Health Inc., priority 2013, published 2026)
